The entries are a selection whose mix differs from that of the whole data set. Records with an inconclusive call do not appear. Some structures show a salt or complex split into parts, the way the source records it. Activity calls are given as the source filed them. Unless noted, calls follow the shape of the dose curve; as a rule, active = well fitted curve in the direction sought with a large enough effect; inconclusive = small, poorly fitted or top-dose-only effect, or another doubt; inactive = no such curve, though single readings can be large; an effect the other way counts as inactive or inconclusive.
What was measured:
[1] = Primary qHTS for inhibitors of La Crosse Virus (LACV) - induced cell death in SH-SY5Y cells (AID 1508616); settings: SH-SY5Y LACV cytopathicity rescue, ATP luminescence, 6 d; at 4.29 µM (top of the series) unless noted;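 also: top concentration of the series differs between compounds; 0% = infected DMSO wells and 100% = uninfected DMSO wells; higher means more rescue of cells from virus-induced death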
Summary of the method: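 Readout was luminescence from ATPLite 1step added after a 6-day LACV infection (0.01 MOI) of SH-SY5Y cells that had received pin-transferred compound 24 hr after seeding.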

[2] = Cytotoxicity counterscreen for inhibitors of SARS-CoV-2 cell entry (AID 1645845; calls by dose curve; also: nearly all actives have a fitted effect of over 50% in size; as to activity change, negative = cytotoxicity: % is scaled to controls: 0 for no effect and ±100 for the full control effect); settings: cell viability (SARS-CoV-2 entry assay cells); activity change, negative = cytotoxicity: at 57.1 µM (top of the series)
Summary of the method: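 48 h compound treatment (after 1 h preincubation), HEK293-ACE2 cells, 37 C/5% CO2; ATP luminescence endpoint; normalized to cell wells and media blanks.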

[3] = Primary qHTS to identify inhibitors of SARS-CoV-2 cell entry (AID 1645846; calls by dose curve; also: nearly all actives have a fitted effect of over 45% in size); settings: SARS-CoV-2 pseudovirus cell entry assay, luminescence; activity change, negative = inhibition: at 57.1 µM (top of the series)
Summary of the method: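 Using luciferase-reporting pseudoviruses carrying Wuhan-Hu-1 spike, the screen tracks entry into stably ACE2-expressing cells over 48 hr. Activity is expressed relative to spike particles versus particles lacking any fusion protein.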

[4] = Primary qHTS for inhibitors of MERS-S pseudo-typed particle cell entry (AID 1479149; calls by dose curve; also: nearly all actives have a fitted effect of over 60% in size; as to activity change, negative = inhibition: % is scaled to controls: 0 for no effect and ±100 for the full control effect); settings: MERS-S pseudotyped particle entry, luciferase; activity change, negative = inhibition: at 57.1 µM (top of the series)
[5] = Primary qHTS for Vero E6 cytotoxicity: counterscreen for inhibitors of SARS-S pseudo-typed particle cell entry (AID 1479150; calls by dose curve; as to activity change, negative = cytotoxicity: % is scaled to controls: 0 for no effect and ±100 for the full control effect); settings: cell viability; activity change, negative = cytotoxicity: at 57.1 µM (top of the series)
[6] = qHTS profiling for inhibitors of Plasmodium falciparum proliferation (AID 504749); also: nearly all actives have a fitted effect of over 60% in size; also: potency is read from the fitted curve at half-maximal effect;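 as to activity, negative = inhibition: 0% = DMSO vehicle and full inhibition = artemisinin control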; settings: P. falciparum in erythrocytes, SYBR Green DNA, 72 h
Summary of the method: (§1)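 Three-day growth assay of blood-stage parasites in erythrocytes (0.3% parasitemia, 2.5% hematocrit) at 37 C, 5% CO2, quantified by SYBR Green DNA staining after overnight detergent lysis.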

3D7 = test: as above; settings: P. falciparum in erythrocytes, SYBR Green DNA, 72 h; at 28.7 µM (top of the series) unless noted
Summary of the method: as §1

7G8 = test: as above; settings: P. falciparum in erythrocytes, SYBR Green DNA, 72 h; series mostly up to 28.7 µM
Summary of the method: as §1

AA1029 = test: as above; settings: P. falciparum in erythrocytes, SYBR Green DNA, 72 h; at 28.7 µM (top of the series) unless noted
Summary of the method: as §1

AS120 = test: as above; settings: P. falciparum in erythrocytes, SYBR Green DNA, 72 h; series mostly up to 28.7 µM
Summary of the method: as §1

ATS189 = test: as above; settings: P. falciparum in erythrocytes, SYBR Green DNA, 72 h; series mostly up to 28.7 µM
Summary of the method: as §1

ATS95 = test: as above; settings: P. falciparum in erythrocytes, SYBR Green DNA, 72 h; series mostly up to 28.7 µM
Summary of the method: as §1

C2A = test: as above; settings: P. falciparum in erythrocytes, SYBR Green DNA, 72 h; series mostly up to 28.7 µM
Summary of the method: as §1

CP185 = test: as above; settings: P. falciparum in erythrocytes, SYBR Green DNA, 72 h; series mostly up to 28.7 µM
Summary of the method: as §1

CP191 = test: as above; settings: P. falciparum in erythrocytes, SYBR Green DNA, 72 h; at 28.7 µM (top of the series) unless noted
Summary of the method: as §1

CP192 = test: as above; settings: P. falciparum in erythrocytes, SYBR Green DNA, 72 h; at 28.7 µM (top of the series) unless noted
Summary of the method: as §1

CP194 = test: as above; settings: P. falciparum in erythrocytes, SYBR Green DNA, 72 h; series mostly up to 28.7 µM
Summary of the method: as §1

CP201 = test: as above; settings: P. falciparum in erythrocytes, SYBR Green DNA, 72 h; at 28.7 µM (top of the series) unless noted
Summary of the method: as §1

CP203 = test: as above; settings: P. falciparum in erythrocytes, SYBR Green DNA, 72 h; at 28.7 µM (top of the series) unless noted
Summary of the method: as §1

CP211 = test: as above; settings: P. falciparum in erythrocytes, SYBR Green DNA, 72 h; at 28.7 µM (top of the series) unless noted
Summary of the method: as §1

[7] = at 28.7 µM (top of the series), parasite line A
[8] = at 28.7 µM (top of the series), parasite line B

Cc1cccc([N+](=O)[O-])c1[N+](=O)[O-]
inactive: activity change [1] 2.59% [at 8.54 µM]

OCCSCCO
inactive: activity change [1] 12.3%

C/C1=C2/N=C(C(CC(N)=O)C2(C)CCC(=O)NCC(C)OP(=O)([O-])OC2C(CO)OC(n3cnc4cc(C)c(C)cc43)C2O)C2(C)N=C(/C(C)=C3N=C(/C=C4N=C1C(CCC(N)=O)C\4(C)C)C(CCC(N)=O)C/3(C)CC(N)=O)C(CCC(N)=O)C2(C)CC(N)=O.[C-]#N.[Co] (stereo not drawn)
inactive: activity change, negative = cytotoxicity [2] -3.58%
-13.3%: activity change, negative = inhibition [3]

O=[N+]([O-])c1cccc([N+](=O)[O-])c1
inactive: activity change, negative = inhibition [4] -21.2% | activity change, negative = cytotoxicity [5] 0.987% | activity change [1] 8.1% [at 8.54 µM] | outcome [3] | activity, negative = inhibition [6, 7] -5.61% | activity, negative = inhibition [6, 8] -2.4% | activity, negative = inhibition (3D7) -9.48% | Potency (7G8) | activity, negative = inhibition (AA1029) 5.45% | Potency (AS120) | Potency (ATS189) | Potency (ATS95) | Potency (C2A) | Potency (CP185) | activity, negative = inhibition (CP191) -2.46% | activity, negative = inhibition (CP192) 1.87% | Potency (CP194) | activity, negative = inhibition (CP201) -1.1% | activity, negative = inhibition (CP203) 4.31% | activity, negative = inhibition (CP211) -0.423%

CC(C)OP(=O)(F)OC(C)C
inactive: outcome [4] | outcome [5] | outcome [2] | activity, negative = inhibition [6, 7] -8.69% | activity, negative = inhibition [6, 8] 14.1% | activity, negative = inhibition (3D7) 0.389% | Potency (7G8) | activity, negative = inhibition (AA1029) -4.42% | Potency (AS120) | Potency (ATS189) | Potency (ATS95) | Potency (C2A) | Potency (CP185) | activity, negative = inhibition (CP191) 5.56% | activity, negative = inhibition (CP192) 5.58% | Potency (CP194) | activity, negative = inhibition (CP201) 4.93% | activity, negative = inhibition (CP203) 4.88% | activity, negative = inhibition (CP211) 0.725%
-25.3%: activity change, negative = inhibition [3]

C/C1=C2N=C(/C=C3N=C(/C(C)=C4\[N-][C@@](C)([C@H]5N=C1[C@@](C)(CCC(=O)NC[C@H](C)OP(=O)([O-])O[C@@H]1[C@H](O)[C@H](n6cnc7cc(C)c(C)cc76)O[C@@H]1CO)[C@@H]5CC(N)=O)[C@](C)(CC(N)=O)[C@H]4CCC(N)=O)[C@@](C)(CC(N)=O)[C@@H]\3CCC(N)=O)C(C)(C)[C@@H]/2CCC(N)=O.[C-]#N.[Co+3]
inactive: activity, negative = inhibition ([6]; at 12.8 µM (top of the series), parasite line A) 1.69% | activity, negative = inhibition ([6]; at 12.8 µM (top of the series), parasite line B) 5.48% | activity, negative = inhibition (3D7) 0.574% [at 12.8 µM] | Potency (7G8) | activity, negative = inhibition (AA1029) 5.69% [at 12.8 µM] | Potency (AS120) | Potency (ATS189) | Potency (ATS95) | Potency (C2A) | Potency (CP185) | activity, negative = inhibition (CP191) 3.58% [at 12.8 µM] | activity, negative = inhibition (CP192) -5.33% [at 12.8 µM] | Potency (CP194) | activity, negative = inhibition (CP201) -12.9% [at 12.8 µM] | activity, negative = inhibition (CP203) 11.3% [at 12.8 µM] | activity, negative = inhibition (CP211) -1.13% [at 12.8 µM]

C/C1=C2N=C(/C=C3N=C(/C(C)=C4\[N-][C@@](C)([C@@H]5N=C1[C@](C)(CCC(=O)NC[C@@H](C)OP(=O)([O-])O[C@H]1[C@@H](O)[C@@H](n6cnc7cc(C)c(C)cc76)O[C@@H]1CO)[C@H]5CC(N)=O)[C@@](C)(CC(N)=O)[C@@H]4CCC(N)=O)[C@@](C)(CC(N)=O)[C@@H]\3CCC(N)=O)C(C)(C)[C@@H]/2CCC(N)=O.[C-]#N.[Co+3]
inactive: outcome [4] | activity change, negative = cytotoxicity [5] -3.91% | activity change [1] 3.24% | outcome [2]
-19.4%: activity change, negative = inhibition [3]

O=[N+]([O-])OCC(CO[N+](=O)[O-])(CO[N+](=O)[O-])CO[N+](=O)[O-]
-13.5%: activity change, negative = inhibition [3]
active: Potency ([6]; parasite line A) 8.91 µM | Potency ([6]; parasite line B) 12.6 µM | Potency (7G8) 5.01 µM | Potency (AS120) 7.08 µM | Potency (ATS189) 5.62 µM | Potency (ATS95) 5.62 µM | Potency (C2A) 6.31 µM | Potency (CP185) 4.47 µM | Potency (CP194) 12 µM
inactive: activity change, negative = cytotoxicity [2] -0.125% | activity, negative = inhibition (AA1029) -19.2% | activity, negative = inhibition (CP192) -18.5% | activity, negative = inhibition (CP211) -15.4%

CCOP(=O)(CC)Oc1ccc([N+](=O)[O-])cc1 (stereo not drawn)
inactive: outcome [4] | outcome [5] | activity change [1] -25.5% | activity change, negative = cytotoxicity [2] -12.2%

— PubChem BioAssay (NCATS)
